From patent US20220251595A1, “ENGINEERED ATRLP23 PATTERN RECOGNITION RECEPTORS AND METHODS OF USE” (priority 2019, published 2022)

B1: AtRLP23-eJMAtRLP42-3×FLAG: AtRLP23 with the AtRLP42 eJM domain, 3×FLAG; SEQ ID NO: 57, 58 (protein)
chain: MSKALLHLHFLSLFLLCCVCHSSIFTLNFHFTGIVACRPHQIQAFTKFTNEFDTRGCNNSDTFNGVWCDNSTGAVAVLQLRKCLSGTLKSNSSLFGFHQLRYVDLQNNNLTSSSLPSGFGNLKRLEGLFLSSNGFLGQVPSSFSNLTMLAQLDLSYNKLTGSFPLVRGLRKLIVLDLSYNHFSGTLNPNSSLFELHQLRYLNLAFNNFSSSLPSKFGNLHRLENLILSSNGFSGQVPSTISNLTRLTKLYLDQNKLTSSFPLVQNLTNLYELDLSYNKFFGVIPSSLLTLPFLAHLALRENNLAGSVEVSNSSTSSRLEIMYLGSNHFEGQILEPISKLINLKHLDLSFLNTSYPIDLKLFSSLKSLRSLDLSGNSISSASLSSDSYIPLTLEMLTLRHCDINEFPNILKTLKELVYIDISNNRMKGKIPEWLWSLPLLQSVTLGNNYFTGFQGSAEILVNSSVLLLYLDSNNFEGALPDLPLSIKGFGVASNSFTSEIPLSICNRSSLAAIDLSYNNFTGPIPPCLRNLELVYLRNNNLEGSIPDALCDGASLRTLDVSHNRLTGKLPRSFVNCSSLKFLSVINNRIEDTFPFWLKALPNLQVLTLRSNRFYGPISPPHQGPLGFPELRIFEISDNKFTGSLPPNYFVNWKASSRTMNQDGGLYMVYEEKLFDEGGYGYTDALDLQYKGLHMEQAKALTSYAAIDFSGNRLEGQIPESIGLLKALIAVNISNNAFTGHIPLSMANLENLESLDMSRNQLSGTIPNGLGSISFLAYINVSHNQLTGEIPQGTQITGQSKSSFEGNAGLCGLPLKESCFGTGAPPMYHQKQEDKEEEEAEEDEQELNWKAVAIGYGSGLLLGLAIAQVIASYKPEWLVKIIGLNKRRKRSDYKDHDGDYKDHDLDAAAADYKDDDDK
modifications: Fusion protein
B2: AtRLP23-eJMAtRLP42-AtEFR-3×FLAG: AtRLP23 apoplastic domain, AtRLP42 eJM domain, AtEFR TM and cytoplasmic domains, 3×FLAG; SEQ ID NO: 61, 62 (protein)
chain: MSKALLHLHFLSLFLLCCVCHSSIFTLNFHFTGIVACRPHQIQAFTKFTNEFDTRGCNNSDTFNGVWCDNSTGAVAVLQLRKCLSGTLKSNSSLFGFHQLRYVDLQNNNLTSSSLPSGFGNLKRLEGLFLSSNGFLGQVPSSFSNLTMLAQLDLSYNKLTGSFPLVRGLRKLIVLDLSYNHFSGTLNPNSSLFELHQLRYLNLAFNNFSSSLPSKFGNLHRLENLILSSNGFSGQVPSTISNLTRLTKLYLDQNKLTSSFPLVQNLTNLYELDLSYNKFFGVIPSSLLTLPFLAHLALRENNLAGSVEVSNSSTSSRLEIMYLGSNHFEGQILEPISKLINLKHLDLSFLNTSYPIDLKLFSSLKSLRSLDLSGNSISSASLSSDSYIPLTLEMLTLRHCDINEFPNILKTLKELVYIDISNNRMKGKIPEWLWSLPLLQSVTLGNNYFTGFQGSAEILVNSSVLLLYLDSNNFEGALPDLPLSIKGFGVASNSFTSEIPLSICNRSSLAAIDLSYNNFTGPIPPCLRNLELVYLRNNNLEGSIPDALCDGASLRTLDVSHNRLTGKLPRSFVNCSSLKFLSVINNRIEDTFPFWLKALPNLQVLTLRSNRFYGPISPPHQGPLGFPELRIFEISDNKFTGSLPPNYFVNWKASSRTMNQDGGLYMVYEEKLFDEGGYGYTDALDLQYKGLHMEQAKALTSYAAIDFSGNRLEGQIPESIGLLKALIAVNISNNAFTGHIPLSMANLENLESLDMSRNQLSGTIPNGLGSISFLAYINVSHNQLTGEIPQGTQITGQSKSSFEGNAGLCGLPLKESCFGTGAPPMYHQKQEDKEEEEAEEDEQELNWKVVSGICIGIASLLLIIIVASLCWFMKRKKKNNASDGNPSDSTTLGMFHEKVSYEELHSATSRFSSTNLIGSGNFGNVFKGLLGPENKLVAVKVLNLLKHGATKSFMAECETFKGIRHRNLVKLITVCSSLDSEGNDFRALVYEFMPKGSLDMWLQLEDLERVNDHSRSLTPAEKLNIAIDVASALEYLHVHCHDPVAHCDIKPSNILLDDDLTAHVSDFGLAQLLYKYDRESFLNQFSSAGVRGTIGYAAPEYGMGGQPSIQGDVYSFGILLLEMFSGKKPTDESFAGDYNLHSYTKSILSGCTSSGGSNAIDEGLRLVLQVGIKCSEEYPRDRMRTDEAVRELISIRSKFFSSKTTITESPRDAPQSSPQEWMLNTDMHTMASDYKDHDGDYKDHDLDAAAADYKDDDDK
modifications: Fusion protein
B3: AtRLP23-AtPEPR1-3×FLAG: AtRLP23 apoplastic and eJM domains, AtPEPR1 TM and kinase domains, 3×FLAG; SEQ ID NO: 572, 573 (protein)
chain: MSKALLHLHFLSLFLLCCVCHSSIFTLNFHFTGIVACRPHQIQAFTKFTNEFDTRGCNNSDTFNGVWCDNSTGAVAVLQLRKCLSGTLKSNSSLFGFHQLRYVDLQNNNLTSSSLPSGFGNLKRLEGLFLSSNGFLGQVPSSFSNLTMLAQLDLSYNKLTGSFPLVRGLRKLIVLDLSYNHFSGTLNPNSSLFELHQLRYLNLAFNNFSSSLPSKFGNLHRLENLILSSNGFSGQVPSTISNLTRLTKLYLDQNKLTSSFPLVQNLTNLYELDLSYNKFFGVIPSSLLTLPFLAHLALRENNLAGSVEVSNSSTSSRLEIMYLGSNHFEGQILEPISKLINLKHLDLSFLNTSYPIDLKLFSSLKSLRSLDLSGNSISSASLSSDSYIPLTLEMLTLRHCDINEFPNILKTLKELVYIDISNNRMKGKIPEWLWSLPLLQSVTLGNNYFTGFQGSAEILVNSSVLLLYLDSNNFEGALPDLPLSIKGFGVASNSFTSEIPLSICNRSSLAAIDLSYNNFTGPIPPCLRNLELVYLRNNNLEGSIPDALCDGASLRTLDVSHNRLTGKLPRSFVNCSSLKFLSVINNRIEDTFPFWLKALPNLQVLTLRSNRFYGPISPPHQGPLGFPELRIFEISDNKFTGSLPPNYFVNWKASSRTMNQDGGLYMVYEEKLFDEGGYGYTDALDLQYKGLHMEQAKALTSYAAIDFSGNRLEGQIPESIGLLKALIAVNISNNAFTGHIPLSMANLENLESLDMSRNQLSGTIPNGLGSISFLAYINVSHNQLTGEIPQGTQITGQSKSSFEGNAGLCGLPLKESCFGTGAPPMYHQKQEDKEEEEEEEEEEEEVLNGRIVLIAVLSSLLVLVVVLALVFICLRRRKGRPEKDAYVFTQEEGPSLLLNKVLAATDNLNEKYTIGRGAHGIVYRASLGSGKVYAVKRLVFASHIRANQSMMREIDTIGKVRHRNLIKLEGFWLRKDDGLMLYRYMPKGSLYDVLHGVSPKENVLDWSARYNVALGVAHGLAYLHYDCHPPIVHRDIKPENILMDSDLEPHIGDFGLARLLDDSTVSTATVTGTTGYIAPENAFKTVRGRESDVYSYGVVLLELVTRKRAVDKSFPESTDIVSWVRSALSSSNNNVEDMVTTIVDPILVDELLDSSLREQVMQVTELALSCTQQDPAMRPTMRDAVKLLEDVKHLARSCSSDSVRSDYKDHDGDYKDHDLDAAAADYKDDDDK
modifications: Fusion protein

Key:
corn protoplasts [1] = experiment: Calcium burst in transiently transfected corn protoplasts, R-GECO1.2 fluorescence reporter; type: cell-based, Zea mays; settings: 1 μM PpNLP20
corn protoplasts [2] = experiment: Calcium burst in transiently transfected corn protoplasts, apoaequorin luminescence reporter; settings: for Ca^2+ increase in response to CgNLP24b (aequorin luminescence): 1 μM CgNLP24b; for Ca^2+ increase in response to FgNLP24c (aequorin luminescence): 1 μM FgNLP24c; for Ca^2+ increase in response to FvNLP24a (aequorin luminescence): 1 μM FvNLP24a; for Ca^2+ increase in response to PpNLP20 (aequorin luminescence): 1 μM PpNLP20; for Ca^2+ increase in response to SmNLP24 (aequorin luminescence): 1 μM SmNLP24; for strength of response relative to control construct AtRLP23-ejmAtRLP42-AtEFR-3×FLAG: FIG. 8
[3] = transient expression in corn protoplasts

| Molecule | response to PpNLP20 compared to transient expression of AtRLP23-3×FLAG (total transient increase of fluorescence) (corn protoplasts [1]; Example 2, FIG. 3, 40 minutes, 96-well) | Ca^2+ increase in response to PpNLP20 treatment (R-GECO1.2 fluorescence) (corn protoplasts [1]; [3]) | Ca^2+ increase in response to CgNLP24b (aequorin luminescence) (corn protoplasts [2]; [3]) | Ca^2+ increase in response to FgNLP24c (aequorin luminescence) (corn protoplasts [2]; [3]) | Ca^2+ increase in response to FvNLP24a (aequorin luminescence) (corn protoplasts [2]; [3]) | Ca^2+ increase in response to PpNLP20 (aequorin luminescence) (corn protoplasts [2]; [3]) | Ca^2+ increase in response to SmNLP24 (aequorin luminescence) (corn protoplasts [2]; [3]) | response compared with AtRLP23-eJMAtRLP42-3×FLAG (corn protoplasts [2]; FIG. 6, for the five peptides PpNLP20, CgNLP24b, FgNLP24c, FvNLP24a, SmNLP24) | Ca^2+ increase in response to AfNLP24a (aequorin luminescence) (corn protoplasts [2]; transient expression in corn protoplasts, 1 μM AfNLP24a) | Ca^2+ increase in response to AfNLP24b (aequorin luminescence) (corn protoplasts [2]; transient expression in corn protoplasts, 1 μM AfNLP24b) | Ca^2+ increase in response to AfNLP24c (aequorin luminescence) (corn protoplasts [2]; transient expression in corn protoplasts, 1 μM AfNLP24c) | Ca^2+ increase in response to ApNLP24a (aequorin luminescence) (corn protoplasts [2]; transient expression in corn protoplasts, 1 μM ApNLP24a) | strength of response relative to control construct AtRLP23-ejmAtRLP42-AtEFR-3×FLAG (corn protoplasts [2]; FgNLP24c) | strength of response relative to control construct AtRLP23-ejmAtRLP42-AtEFR-3×FLAG (corn protoplasts [2]; all other NLPs (CgNLP24b, FvNLP24a, SmNLP24)) |
| --- | --- | --- | --- | --- | --- | --- | --- | --- | --- | --- | --- | --- | --- | --- |
| B1 | statistically significant increase of response | Ca^2+ increase | Ca^2+ increase | Ca^2+ increase | Ca^2+ increase | Ca^2+ increase | Ca^2+ increase | – | – | – | – | – | – | – |
| B2 | – | – | Ca^2+ increase | Ca^2+ increase | Ca^2+ increase | significant Ca^2+ increase | Ca^2+ increase | stronger response | Ca^2+ increase | Ca^2+ increase | Ca^2+ increase | Ca^2+ increase | – | – |
| B3 | – | – | – | – | – | – | – | – | – | – | – | – | similar | weaker |
